Results taken from article PMC8215210.

molecular target: T1, His-OpaR (Vibrio parahaemolyticus RIMD2210633) (UniProt Q79YV4); test: EMSA; details: pH and temperature not given (as in Zhang et al., 2012, 2017); EMSA on 6% polyacrylamide gel; footprinting with 0, 6, 9, 12 pmol His-OpaR; recombinant protein; residues 1-204; protein details: 6xHis; probe letters rebuilt from the primers and the genome
T1 sequence: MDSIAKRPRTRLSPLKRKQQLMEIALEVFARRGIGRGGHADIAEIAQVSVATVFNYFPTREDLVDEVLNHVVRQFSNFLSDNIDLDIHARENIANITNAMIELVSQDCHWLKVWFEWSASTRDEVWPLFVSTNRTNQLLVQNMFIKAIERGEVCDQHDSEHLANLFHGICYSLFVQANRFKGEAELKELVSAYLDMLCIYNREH

| Sequence | binding result |
| --- | --- |
| CTCACACAACACTTTCTGGTACGCGCCGCAGATGAGCTTGGAGTGGAAACCAAAACCTTGCACCCGTCGACAGTCGAAATTCTCAATCGACTCAATTGGCCGGGCAACGTACGTCAGCTAGAAAACATTTGTCGCTGGTTAACCGTGATGGCGAGTGGCAGTGAAGTATTACCGAACGATTTGCCTTCAGAGCTTTTGGAAGAGAAGAAGACCGTTTCGGATTCAACCAAAGGTAGCTGGCAAGAACAATTGGCGGACTGGGCACGTCAATCGCTCGCTGCGGGGGATAAAGAACTACTTTCTTTCGCATTACCAGAATTTGAGCGCATTTTATTAGAAGCTGCACTGGAGCACACTAAAGGTCACAAGCAAGATGCCGCTAAAGTATTAGGCTGGGGACGCAATACGCTAACCAGAAAGTTAAAAGAGTTGTACTGACCGTCACTTAAGCAGTGAGTTAACAATGAGAGTGCTTAGCGCTCGATATTAACAGAAATGTCAGTACAATTAAGGTGAACCATCCCTAATGTGACTAGGCAATGTCTACTGCAAAGACTCAAATTACACTACGTACTGCTGTACTCATCCCTTTTGTGATGATTTTCTTACTGGCTATCGGTGTGATTGTCTGAATTCGCGC (double strand) [VP0117 EMSA fragment] | binds |
| CTGACTTACATCGTGGACCCGTTTGGAAAAAGCTCGCATGTACCCTACTACTGCCGTAACACTATTTTCACCACGATGAGTGGCGTCGTTATTTTTACTTTAGGCTTAGTAATTTACGTTTCTTTTTGATGCTTTTCTAGGCACAAAATGACTTTAGAATGGATTAATGCGAAAGCAATTAAAAAAGTGTGAGTAACGGCTGCAAACTATTGATTTCAATGTCAGGTAACGTACGTGTTCTTGAATGATTAATGACATTTTTATTCATATCATTAAACCAACATGCGGCAAAACCCGCTAACTTTGCACCATATACATCCGTCGTGAGGTGGTCACCAACATGCAAAATGTTTTCGGCAGGTAAATCGAGGAACTGCTGCGCTTTGACAAACAAATCGGCAGCAGGCTTGGCGAGACCGTCAGGGCCCGCTTTTAATACGCATTGGAAGTATGGCGTCAAACCGATTTTATCTAAGTCGACATTACCATTGGTGATCGCCACCAGAGGAATGCGTTCTCCCAACTCCGCCAATACATCGAGACTTTGCTGTGGCACGTCAAACTGACTGCGCCATTCCAACGCCAGTTGCACGCCCTCTTCCGCTGCGACTTGAGCTTGCGCTTCATCGTAGCCAACGGATAGAAA (double strand) [VP2979 EMSA fragment] | binds |
| GTCGGCTGCGATTAGTCTGAATAGAATCCTTGTCGCTCATTTTTTTCGATCCTTGTCGGAAATTAGCCATATTATTAATTTTTAAACGCGTAACTATCTGTTACTAAAACATTATTACCTATTCAAACCAGACTTTAATTTTTTACTCTGCCATTAAGTGACTTTAGTTCCACTTTTTTAGCTTATTTGATGACATAAGCAACAGTTTCGCCTCCAACCAATAAACAACTGAATACATATTAAAATATTCATTAAATTGACTATTTTTATGATAAACGCTTAATAATAGTTTTATCTATAAACAAACAGTGAGCTTTGTTATAAATTCATTAAAAATTTAACTTTGTATTAATTAGAAAATTCAGCGTCATATTTGTTCAACTGCGACTATTCTTTTTATAACCAAGTAATCTCAATATGTTAAGTTTCATAAAATGGCTTGATGTTTAAATGAACAGTTAATTTTTAGACCATATATAGCGAGATCTAAAGTAGTTCAAACAAATGTACGGTCTAACTCTTAGCTGCGAGAACAAACCACTTGGATATACGCTC (double strand) [scrA EMSA fragment] | binds |
| CAGGGAAATGAAGTAATCATGCGCATTATTAAGATACAAATGCTAATTTAAAATAGTAGACAGTCATGTTCTTGCGCTTTCAAATGAATAAAACTTCGTTCAGTTTAACTTGCTGATCATCGATATTTATAAAACTTAGTCAACAGTAAATCGTGTTTATATGAAATAGTTATTGATGCATTCCTCAAATTATTAAAATTAGTTAATAATGCTGTCATTTCTTGAGCTAAGTCCATAAAAATAAAATGGTTTTATGAAGTAAATCGCTCTATTAATTGACTGAATACTCATTAATTGAAATGAATTGAGGATTCTTATAACAGCTATGCGCGATATCTTTTATAATGCACGCGTTACCTAATAGTATTTAATAAATGTCACCATATGCAGTACAACCCAGAAGACTCAATTAAAATTGCAATCGCAGATGTTGCTGTCGGCATGTTTGTTACCGCGATAGAGCATAACAAACGAGTCAATTTAGCCAATGCTGGTCGAGTTTCGAGCGCAGAAGGCATTAAAAAGCTTCGCGCAAGTGGCGTGAAATTCGTTTGGGTTGATCAATCACTTTCTGCTCAGCAGTGCGTATTCAAACCCGTCGAAGAACCTATCGATATCGAAGTAGGGGATAAAACGCTTTCCGTATCAAGCAAAGTACAACGTGCGTATCGCTCGCGAGAAGTCCAACACAAGCGTGCTA (double strand) [scrG EMSA fragment] | binds |
| TCAGGTACGCTTGCTTCACCACGCGCATGGTGGATGCTCAAAGCGATGGGACACGAGAACGTCAAAGTACTTAATGGTGGACTTCCAGCTTGGATAGAAGCGGGATTGCCCGTGGTAGATTCGCTAGCAAAACCTGAACAATTAGGAAATTTTGCGGGAAAATTAAATAAAAATGCATTTTTGGACGCAAATGCAGTATTAGAGTACTCAAACAATTGCAGTGCGCATATTGTTGATGCTCGCTCACGAGCGCGCTTTTTTGGTGAAGTGCCTGAGCCAAGAGAAGGATTGCGCAGTGGCCATATTCCAAACTCGTTGTGCCTGCCTTTTCAAGAACTGCTGGATAACGGTTACATCAAACCGAACTCAGAATTGAAACAAGCATTTAGCGAACTGTCGCTATATAATGACAATTCAATCATTTTCAGCTGTGGCTCAGGTGTGACTGCCTGTATTTTATTGTTGGCAGCTCATCAACTTGGCTTACGCAACTTATCTGTTTATGACGGTTCATGGACAGAATGGGGTGCAGACTGCTCACTGCCAATTACGCGTTAAGCTAGGGGTTATCAAAACAATATGGTCGGATTAAAGAAGAACATTTGGACTCTTTACATGATGCTGCTCACCGTCAGTATCGTGACATTTTCGCTATTCGGCTATTACCACTACCAAGCAACG (double strand) [VPA1176 EMSA fragment] | binds |
| GTCTTGCTGATTCTGATGCAACAGCTCAATAACACCAACACACAAAGCAACAAAAGCGAAAAAGAACAGTGCAAAATAGCACTGCTTTCTGGGTGAATAACGCATTAGCTCCCCACTAGCTCGTCCGTTACTACGAGAATTATTCTTTTATTGTTAAAATTCTTATTATCTACAAGAATAACCAATAGCCTTTGCAAAGGTAATAATTATCTGAAATTTTTATGGTTTAAATAGGCAACGGGATGCAAGGACAAGGCGATTTATTTGAAAGTACGGATTGGCAAGAGGTACGCCAAGGTAAGCTCTTTTATCAGCCAAACTTTCTTTCTCAGCAAGAAGCGGATACGTACTTTTCAACGCTTATGAGTACCTTGCCTTGGCAACAAGAACGCATAACCATTTTCGGGAAATCGGTACTTCAACCTCGTTTGCAGACTTGGCATGGCGATGCGCCTTACACCTATTCGGGTTTAACCATGGCACCTCACCCTTGGACGTCTGAGCTGTCATCACTCAAGGCTCGCTGTGAAAGCCTTGCCAACACCCCGTTCAACTCTGTATTGGCGAATCTGTATCGCGACGGTCAGGACTCGATGGGATGGCACCAAGACAATGAACCAGAG (double strand) [VPA0198 EMSA fragment] | binds |
| AGTATCACGATGTGTCAGCCTGAGTTGGTCAAGTTGACAACTCAGCTGATGAAGCTGCGACTGAATATCGGATTCCAAGATTCCCATGAAACGACTACGGTTAAGTCCATGTACTACTGACAATTAACTGATAATAACAAAAAACTTTATAGCGTCATTAGTTATTACGCTTAACCGATGGTTAATTATCCATTTTTTAATATTTTCTTGATGTCGTCCTCATTCTTGTAAGAGGAGTGGATCTTGATCAGGCCTTGGTTGATGGCGTGTTGGCAAGCGGTTCTTATGTTACCGGTTGCAAAGCTCGCTGCTGGCGCGTTGTCAATGGCTTTCAAAAATACCCAATGACTTTGTTTATCTTTGAGGCTAACTTCGCGTGCAATGTGCGTCGCAAGTAGCAGTAAATCGAGCAGTTCTTCATCATTGATAGCGGTGTAAGCACGAGGCAAGAATGGGTAGTCGCTGATGCCCATACGAATGATGCGATTGACGTTATGTTGAGTCGCAAATTCGTCTACCCACGCTTGGAATTTTTCAAACATGACTTCGGCAGAGGCGTCGCGGTCTGCGTTAGGTTCGATGTAGAGTAAGTTTGCATCCGAGAAGTGGTACAAACGTGCAGGTTTTTCGATGCGCTCTGCTAGGTATTCTCC (double strand) [VP0699 EMSA fragment] | binds |

molecular target: T1, His-OpaR (Vibrio parahaemolyticus RIMD2210633); test: DNase I footprinting; details: pH and temperature not given (as in Zhang et al., 2012, 2017); footprinting with 0, 6, 9, 12 pmol His-OpaR; recombinant protein; residues 1-204; protein details: 6xHis; label: labeled coding or noncoding strand; probe letters rebuilt from the primers and the genome

| Sequence | binding result |
| --- | --- |
| TAAATACTATTAGGTAACGCGTGCATTATAAAAGATATCGCGCATAGCTGTTATAAGAATCCTCAATTCATTTCAATTAATGAGTATTCAGTCAATTAATAGAGCGATTTACTTCATAAAACCATTTTATTTTTATGGACTTAGCTCAAGAAATGACAGCATTATTAACTAATTTTAATAATTTGAGGAATGCATCAATAACTATTTCATATAAACACGATTTACTGTTGACTAAGTTTTATAAATATCGATGATCAGCAAGTTAAACTGAACGAAGTTTTATTCATTTGAAAGCGCAAGAACATGACTGTCTACTATTTTAAATTAGCATTTGTATCTTAATAATGCGCATGATTACTTCATTTCCCTG (double strand) [scrG footprint probe] | binds |
